Measured values from several laboratories, pooled; numbers as filed in NIAID ChemDB.

Common to all: whole-cell or culture tests; species: HIV-1

Two numbers with a dash give a range or band. ECn is the concentration giving n% inhibition of infection, replication or growth. Lines come from different laboratories, so protocols vary. An empty or dashed field is not shown.

compound,strain or isolate,cell line,mutations,endpoint,read by,result
CCc1cn([C@H]2C=C[C@@H](OCP(=O)(O)O)O2)c(=O)[nH]c1=O,IIIB,MT-2,,EC50,cytopathic effect / XTT,>100 µg/mL
Cc1ccc(-c2cc(-c3ccc(Cl)cc3)nc(/N=C3\C(=O)N(CN4CCOCC4)c4ccc(Cl)cc43)n2)cc1,IIIB,MT-4,,EC50,cytopathic effect / MTT,>3 µM
O=c1ccn(N2C[C@H](CO)[C@H]2CO)c(=O)[nH]1,,MT-4,,EC50,antigen,>100 µg/mL
COc1ccc(-c2c(C)nc(NC(=O)NC3CCCCC3)c(C)c2C(OC(C)(C)C)C(=O)O)cc1,IIIB,MT-4,,EC50,MTT,0.01 µM
COC(=O)N[C@H](C(=O)N[C@@H](Cc1ccc(C#Cc2ccc(N3CC4COCC(C3)N4C)nc2)cc1)[C@@H](O)CN(Cc1c(F)cc(-c2ccn(CC(F)F)n2)cc1F)NC(=O)[C@@H](NC(=O)OC)C(C)(C)C(F)(F)F)C(C)(C)C(F)(F)F,IIIB,MT-4,,EC50,luminescence,0.00232 µM
O=c1[nH]c(SCc2cn[nH]n2)nc(-c2ccc(I)cc2)c1Cl,ADA5,,,EC50,,0.29 µg/mL
Cc1ccc(-c2cc(-c3ccc(Cl)cc3)nc(/N=C3\C(=O)N(CN(C)C)c4ccc(Cl)cc43)n2)cc1,IIIB,MT-4,,EC50,cytopathic effect / MTT,>7 µM
Cc1cc(COc2ccc(-c3cccc(-c4nn[nH]n4)c3)cc2)cnc1CS(=O)c1nc2ccccc2[nH]1,Clinical isolates,HEK293T,,EC50,ELISA,20 µM
Cc1cc(C#N)cc(C)c1Oc1nc(Nc2ccc(C#N)cc2)nc(N)c1Br,RES056,MT-4,,EC50,MTT,0.034 µM
O=c1[nH]c(SCc2cn[nH]n2)nc(-c2ccccc2)c1Cl,IIIB,,,EC50,,1.38 µg/mL
Cc1cn([C@H]2C=C[C@@H](OCP(=O)(O)O)O2)c(=O)[nH]c1=O,LAI,CEM-F + CEM,,EC50,ELISA,1.8 µg/mL
COC(=O)N[C@H](C(=O)N[C@@H](Cc1ccc(C#Cc2ccc(N3CC4CCC(C3)N4C3COC3)nc2)cc1)[C@@H](O)CN(Cc1c(F)cc(-c2ccn(C(F)F)n2)cc1F)NC(=O)[C@@H](NC(=O)OC)C(C)(C)C)C(C)(C)C,IIIB,MT-4,,EC50,luminescence,0.00247 µM
COc1cnc(CS(=O)c2nc3ccc(C)cc3[nH]2)c(C)c1OC,Clinical isolates,HEK293T,,EC50,ELISA,50 µM
Cc1ccc(-c2c(C)nc(NC(=O)NC3CCCCC3)c(C)c2C(OC(C)(C)C)C(=O)O)cc1C,IIIB,MT-4,,EC50,MTT,0.0078 µM
[2H]C([2H])(NC(=O)C[C@@]12CC[C@]3(C)[C@H](CC[C@@H]4[C@@]5(C)CC[C@H](OC(=O)[C@H]6C[C@@H](C(=O)O)C6(C)C)C(C)(C)[C@@H]5CC[C@]43C)C1=C(C(C)C)C(=O)C2)c1ccccc1,92HT599,MT-2,,EC50,p24 / ELISA,<1 µM
CCOCn1c(Cc2ccccc2)c(C#N)c(=O)[nH]c1=O,,,RT-Y181C,EC50,,>100 µM
O=C1CSC(c2c(F)cccc2Cl)N1c1cccc(Cl)c1,IIIB,MT-4,,EC50,cytopathic effect,0.61 µM
Cc1ccc(-c2cc(-c3ccc(Cl)cc3)nc(/N=C3\C(=O)N(CN4CCCCC4)c4ccc(Br)cc43)n2)cc1,IIIB,MT-4,,EC50,cytopathic effect / MTT,>1 µM
CCOCn1c(Cc2ccccc2)c(I)c(=O)[nH]c1=O,IIIB,MT-4,,EC50,,0.021 µM
COC(=O)N[C@H](C(=O)NN(Cc1c(F)cc(-c2ccccn2)cc1Cl)C[C@H](O)[C@H](Cc1ccc(C#Cc2ccc(N3CC4CCC(C3)N4C3COC3)nc2)cc1)NC(=O)[C@@H](NC(=O)OC)C(C)(C)C(F)(F)F)C(C)(C)C,IIIB,MT-4,,EC50,luminescence,0.00489 µM
Cc1ccc(-c2cc(-c3ccc(Cl)cc3)nc(/N=C3\C(=O)N(CN4CCOCC4)c4ccc(Br)cc43)n2)cc1,IIIB,MT-4,,EC50,cytopathic effect / MTT,>2 µM
CC(C)C1=C2[C@H]3CC[C@@H]4[C@@]5(C)CC[C@H](OC(=O)[C@H]6C[C@@H](C(=O)O)C6(C)C)C(C)(C)[C@@H]5CC[C@@]4(C)[C@]3(C)CC[C@@]2(CCNC(=O)C2CC2)CC1=O,92HT599,MT-2,,EC50,p24 / ELISA,<1 µM
CCOCn1c(Cc2ccccc2)c(C#N)c(=O)n(COCC)c1=O,,,RT-Y181C,EC50,,>100 µM
O=C1CSC(c2c(F)cccc2F)N1c1cc(F)cc(F)c1,IIIB,MT-4,,EC50,cytopathic effect,0.54 µM
COC(=O)c1ccc(OCc2cnc(CS(=O)c3nc4ccccc4[nH]3)c(C)c2)c(OC)c1,Clinical isolates,HEK293T,,EC50,ELISA,3.5 µM
Cc1cc(C(=O)NC[C@H](O)[C@@]23CC[C@]4(C)[C@H](CC[C@@H]5[C@@]6(C)CC[C@H](OC(=O)[C@H]7C[C@@H](C(=O)O)C7(C)C)C(C)(C)[C@@H]6CC[C@]54C)C2=C(C(C)C)C(=O)C3)c(C)o1,92HT599,MT-2,,EC50,p24 / ELISA,<1 µM
COC(=O)N[C@H](C(=O)N[C@@H](Cc1ccc(C#Cc2ccc(N3C[C@@H]4C[C@H]3CN4C3COC3)nc2)cc1)[C@@H](O)CN(Cc1c(F)cc(-c2nnc(C)o2)cc1F)NC(=O)[C@@H](NC(=O)OC)C(C)(C)C(F)(F)F)C(C)(C)C(F)(F)F,IIIB,MT-4,,EC50,luminescence,0.01013 µM
CC(C)C1=C2[C@H]3CC[C@@H]4[C@@]5(C)CC[C@H](OC(=O)[C@H]6C[C@@H](C(=O)O)C6(C)C)C(C)(C)[C@@H]5CC[C@@]4(C)[C@]3(C)CC[C@@]2(CCNC(=O)[C@@H]2CCCCN2)CC1=O,92HT599,MT-2,,EC50,p24 / ELISA,<1 µM
Nc1ccn([C@@H]2CS[C@H](CO)O2)c(=O)n1,IIIB,MT-4,Y181C,EC50,MTT,2.4 µM
CC(C)C1=C2[C@H]3CC[C@@H]4[C@@]5(C)CC[C@H](OC(=O)[C@H]6C[C@@H](C(=O)O)C6(C)C)C(C)(C)[C@@H]5CC[C@@]4(C)[C@]3(C)CC[C@@]2(CCNC[C@H](C)NC(=O)c2ccc(Cl)cc2)CC1=O,92HT599,MT-2,,EC50,p24 / ELISA,<1 µM
Cc1ccc(-c2c(C)nc(Nc3cnc4ccccc4c3)c(C)c2C(OC(C)(C)C)C(=O)O)cc1C,IIIB,MT-4,,EC50,MTT,0.012 µM
Cc1ccc(-c2cc(-c3ccc(Cl)cc3)nc(/N=C3\C(=O)Nc4ccc(Br)cc43)n2)cc1,IIIB,MT-4,,EC50,cytopathic effect / MTT,>10 µM
O=C1CSC(c2c(F)cccc2F)N1c1cccc([N+](=O)[O-])c1,IIIB,MT-4,,EC50,cytopathic effect,5.5 µM
C=Cc1cn([C@H]2C=C[C@@H](OCP(=O)(O)O)O2)c(=O)[nH]c1=O,IIIB,MT-2,,EC50,cytopathic effect / XTT,>100 µg/mL
O=C1CSC(c2c(Cl)cccc2Cl)N1c1cc(Cl)cc(Cl)c1,IIIB,MT-4,,EC50,cytopathic effect,0.28 µM
COC(=O)c1cccc(-c2ccc(COc3cnc(CS(=O)c4nc5ccccc5[nH]4)c(C)c3)cc2)c1,Clinical isolates,HEK293T,,EC50,ELISA,0.5 µM
CSC[C@H]1O[C@@H](n2cnc3c(N)ncnc32)[C@H](O)[C@@H]1O,,C8166,,EC90,syncytia,>20 µM
COc1ccc(-c2c(C)nc(NC(=O)NC3CCCCC3)c(C)c2[C@H](OC(C)(C)C)C(=O)O)cc1,IIIB,MT-4,,EC50,MTT,0.01 µM
CC(C)C1=C2[C@H]3CC[C@@H]4[C@@]5(C)CC[C@H](OC(=O)[C@H]6C[C@@H](C(=O)O)C6(C)C)C(C)(C)[C@@H]5CC[C@@]4(C)[C@]3(C)CC[C@@]2([C@@H](O)CNCCN2CCOCC2)CC1=O,92HT599,MT-2,,EC50,p24 / ELISA,<1 µM
O=C1CSC(c2c(Cl)cccc2Cl)N1c1cc(F)cc(F)c1,IIIB,MT-4,,EC50,cytopathic effect,0.13 µM
Cc1cn([C@H]2C[C@H](N=[N+]=[N-])[C@@H](CO)O2)c(=O)[nH]c1=O,,MT-4,K103N,EC50,MTT,0.019 µM
COc1cnc(CS(=O)c2nc3ccccc3[nH]2)c(C)c1-n1cccc1,Clinical isolates,HEK293T,,EC50,ELISA,22 µM
O=C1CSC(c2c(Cl)cccc2Cl)N1c1cccc(Cl)c1,IIIB,MT-4,,EC50,cytopathic effect,0.31 µM
Cc1nc(NC(=O)NC2CCCCCC2)c(C)c(C(OC(C)(C)C)C(=O)O)c1-c1ccc2c(c1)CCCO2,IIIB,MT-4,,EC50,MTT,0.013 µM
COC(=O)c1ccc(OCCCOc2cnc(CS(=O)c3nc4ccccc4[nH]3)c(C)c2)cc1OC,Clinical isolates,HEK293T,,EC50,ELISA,4 µM
CCc1cn([C@H]2C=C[C@@H](OCP(=O)(O)O)O2)c(=O)nc1N,IIIB,MT-2,,EC50,cytopathic effect / XTT,>100 µg/mL
CCc1cccc(N2C(=O)CSC2c2c(F)cccc2F)c1,IIIB,MT-4,,EC50,cytopathic effect,0.78 µM
Cc1ccc(-c2cc(-c3ccc(Cl)cc3)nc(/N=C3\C(=O)N(CN4CCCCC4)c4ccccc43)n2)cc1,IIIB,MT-4,,EC50,cytopathic effect / MTT,>1 µM
O=c1[nH]c(=O)n([C@H]2C=C[C@@H](OCP(=O)(O)O)O2)cc1Cl,IIIB,CEM,,EC50,cytopathic effect / XTT,10–24 µg/mL